In PubChem BioAssay AID504582 (Broad Institute, 2011) one finds growth rescue data, which are given here for 53 molecules.

This is a selection; strong and weak results do not stand in their true shares. Active and inactive are the calls of the source. Cut-off read from the data, not from the text of the source: active = growth rescue above about 28% (passing the limit was not always enough); inconclusive = no clear call, values can overlap the other calls.

The experiment is described as follows: rescue of yeast from PfHsp40 toxicity, primary screen, S. cerevisiae, ATP luminescence (AID 504582).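 Note: yeast W303a lacking pdr1 and pdr3 grown in galactose medium; growth measured after three days at 30 °C.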 Conditions: S. cerevisiae expressing PfHsp40, growth rescue, at 12.5 µM, stronger effect = higher value.
`CN(C)C(=O)c1cc([N+](=O)[O-])cc2c1-c1c(cc([N+](=O)[O-])cc1[N+](=O)[O-])C2=O`: the growth rescue is inactive: 0.2%.

In the case of `O=[N+]([O-])c1ccc2c(c1)nnn2O`, the growth rescue was inactive: 13.8%. Under `CN(C(=O)Cc1ccc(Cl)c(Cl)c1)[C@H]1CC[C@@]2(CCCO2)C[C@@H]1N1CCCC1` stands inactive: -0.185%; under `NC(=O)Nc1ccc([As](=O)(O)O)cc1`, inactive: 1.84%; under `O=[As](O)(c1cccc(O)c1)c1cccc(O)c1`, inactive: 1.85%. Next, `Cc1cccc(OCC(=O)OC2CN3CCC2CC3)c1` (stereo not drawn): inactive: -0.192%; `O=C(OC1CN2CCC1CC2)c1ccc(Cl)cc1` (stereo not drawn): inactive: -0.842%; `O=[As](O)(O)c1cccnc1`: inactive: -1.89%. Under `CS(=O)(=O)c1ccc(Cl)c(NC(=O)COC(=O)C(O)(c2ccccc2)c2ccccc2)c1` stands inactive: -0.511%; under `COc1cc(C2NCCC3(OCCO3)C2(C)C)cc(OC)c1OC` (stereo not drawn), inactive: -1.02%; under `CCOP(=O)(Nc1cccc2ccccc12)OCC`, inactive: -1.34%. For the molecule `Nc1cccc2c([As](=O)(O)O)cccc12`, the growth rescue is inactive: 1.39%. Next, `Cc1ccc(NCCc2c([N+](=O)[O-])cc([N+](=O)[O-])cc2[N+](=O)[O-])cc1`: inactive: 2.39%; `CCCOP(=S)(Nc1nc(N)cc(=O)[nH]1)OCCC`: inactive: -1.54%. Next, `O=P1(N(CCCl)CCCl)Nc2ccccc2N1`: inactive: -0.45%.

Take `O=P1(N(CCCl)CCCl)OCCCN1CCCl` (stereo not drawn): the growth rescue is inactive: -0.459%. In the case of `COc1ccc2nc(NP(=O)(c3ccccc3)c3ccccc3)sc2c1`, the growth rescue is inactive: 0.77%.

On to `COc1cc(I)ccc1[As](=O)(O)O`, for which the growth rescue is inactive: 0.407%. Consider `Cc1c2c(nc3ccccc13)SC(C(Cl)Cl)C2` (stereo not drawn), for which the growth rescue is inactive: 4.96%. Next, `O=C(OC1CN2CCC1CC2)C12CC3CC(CC(C3)C1)C2` (stereo not drawn): inactive: -0.605%. In the case of `Cc1cc(=O)[nH]c(N[N+](=O)[O-])n1`, the growth rescue is inactive: 0.105%. Under `CC(O)C1C=CC=CC(=O)OC2CC3OC4C5OC5(C)CCC4(COC(=O)C4OC4(C)C(O)CO1)C2(C)C31CO1` (stereo not drawn) stands inactive: -0.308%; under `O=[N+]([O-])c1cc(Oc2ccc([N+](=O)[O-])cc2C(F)(F)F)cc([N+](=O)[O-])c1`, inactive: 5.2%; under `C=C(C=O)CC1CC(O)[C@]2(C)OC3C[C@@H]4OC5C[C@]6(C)O[C@]7(C)CCC8OC9C[C@]%10(C)OC(/C(C)=C\CO)C(O)CC%10OC9CC(C)C8OC7CC6O[C@]5(C)C/C=C\C4OC3CC2O1` (stereo partly drawn), inactive: -1.2%. Under `COc1ccc(N/C(=N/P(=O)(N2CCOCC2)N2CCOCC2)N2CCOCC2)cc1` stands inactive: -0.001%; under `Cc1ccc(OP(=O)(Nc2ccc([N+](=O)[O-])cn2)Oc2ccc(C)cc2)cc1`, inactive: 0.397%.

Turning to `Cc1ccc2nc3c(c(C)c2c1)CC(C(Cl)Cl)S3` (stereo not drawn), the growth rescue was inactive: 1.16%. Next, `O=[As](O)(c1ccc(O)cc1)c1ccccc1O`: inactive: -1.15%; `C[As](=O)(O)c1cccc(C(=O)O)c1`: inactive: -0.296%; `O=[N+]([O-])c1ccc(-c2cc([N+](=O)[O-])c(O)c([N+](=O)[O-])c2)cc1`: inactive: -1.18%. Next, `O=C(OC1CN2CCC1CC2)c1cccc2[nH]cnc12` (stereo not drawn): inactive: 1.27%; `CCN(CC)C(=S)SC(NC=O)C(Cl)(Cl)Cl` (stereo not drawn): inactive: 0.453%.

Regarding `CC(C)NC(=O)NP(=O)(Oc1ccccc1)Oc1ccccc1`, the growth rescue was inactive: -0.827%.

As for `O=[N+]([O-])c1cc([N+](=O)[O-])c(-c2ccn[nH]2)s1`, the growth rescue was inactive: 3.5%. Next, `ClCCSc1nnc(-c2cccnc2)o1`: inactive: 0.77%; `CC(C)c1ccc(OP(=O)(Nc2ccccn2)Oc2ccccc2F)cc1` (stereo not drawn): inactive: 0.431%; `COC(=O)C1(C)COP(=O)(N2CCCCCC2)OC1` (stereo not drawn): inactive: -0.927%.

In the case of `CC1CCOC(=O)C=CC=CC(=O)OC2CC3OC4C5OC5(C)C(O)CC4(COC(=O)C1O)C2(C)C31CO1` (stereo not drawn), the growth rescue was inactive: -1.53%.

Take `Cc1cc(SC(NC(=O)c2ccccc2)C(Cl)(Cl)Cl)nc(C(C)C)n1` (stereo not drawn): the growth rescue is inactive: -0.767%. Take `CCOC(=O)Nc1ccc([As](=O)(O)O)c(O)c1`: the growth rescue was inactive: 1.42%.

Take `CC1CCNP(=O)(N(CCCl)CCCl)O1` (stereo not drawn): the growth rescue is inactive: 0.524%. As for `Cc1cc(SC(NC=O)C(Cl)(Cl)Cl)ncn1` (stereo not drawn), the growth rescue was inactive: -0.153%. Next, `O=P(Nc1ccccn1)(c1cccc2ccccc12)c1cccc2ccccc12`: inactive: -1.1%; `O=[N+]([O-])c1ccc(Nc2ccc(Oc3ccc([N+](=O)[O-])cc3[N+](=O)[O-])cc2)c([N+](=O)[O-])c1`: inactive: 0.246%; `CCOC(=O)Nc1cccc([As](=O)(O)O)c1`: inactive: 3.29%. Next, `C=C(CC1CC(O)[C@]2(C)OC3CC4OC5C[C@]6(C)O[C@]7(C)CCC8OC9C[C@]%10(C)OC%11C(C)=CC(=O)OC%11CC%10OC9C[C@@H](C)C8OC7CC6O[C@]5(C)C/C=C\C4OC3CC2O1)C(=O)O` (stereo partly drawn): inactive: -0.548%. As for `O=C(COc1ccccc1)OC1CN2CCC1CC2` (stereo not drawn), the growth rescue was inactive: 0.013%. Next, `O=C(Nc1ccncc1[N+](=O)[O-])c1ccc([N+](=O)[O-])cc1[N+](=O)[O-]`: inactive: -1.07%; `COP1(=S)c2c(C)nn(CCC#N)c2N=C(c2ccc(F)cc2)N1C` (stereo not drawn): inactive: -0.628%. For `C=C(COC(C)=O)CC1CC(O)[C@]2(C)OC3CC4OC5C[C@]6(C)O[C@]7(C)CCC8OC9C[C@]%10(C)OC%11C(C)=CC(=O)OC%11CC%10OC9C[C@@H](C)C8OC7CC6O[C@]5(C)C/C=C\C4OC3CC2O1` (stereo partly drawn), the growth rescue is inactive: -1.68%. Under `CCC(C)N(CC(C)C)C(=S)SC(NC(C)=O)C(Cl)(Cl)Cl` (stereo not drawn) stands inactive: -0.236%; under `O=C(OC1CN2CCC1CC2)c1cccc([N+](=O)[O-])c1` (stereo not drawn), inactive: -2.18%; under `CCOC(=O)c1ccc(NC(=O)C(C)(CCl)SC)cc1` (stereo not drawn), inactive: 0.425%.
